From US11903388B2 (priority 2018, dated 2024) come the findings set out here.

Molecules are shown by their SMILES.

The test has as its system Aspergillus parasiticus B62. The note with it: pure lichen compound in A. parasiticus culture.

`Cc1cc(OC(=O)c2c(C)cc(O)cc2O)cc(O)c1C(=O)O` [Lecanoric acid]: the aflatoxin production result is recorded as “inhibitory effects”.
For `COC(=O)c1c(C)cc(O)cc1O` [methyl-orsellinate] the value was “inhibitory effects”.
